The values that follow come from patent US11707504B1 (KING FAISAL UNIVERSITY, dated 2023).

The experiment deals with HCoV-229E spike (S) protein, S2 subunit fusion core (HR1/HR2) (human coronavirus 229E, UniProt P15423). Briefly: cell-based or functional assay.

Regarding SLTQINTTLLDLEYEMRSLEEVVKKLNESYIDLKEL [peptide #11], the “IC50 (plaque reduction test, Vero E6 cells)” value amounted to 6.63 µg/mL.
